Measurements taken from US20140080162A1, “FLUORESCENCE LIFETIME EPIGENETICS ASSAYS” (ALMAC SCIENCES (SCOTLAND) LIMITED, priority 2011, published 2014).

System: Endo-LysC
Assay: Endo-LysC cleavage of peptides, fluorescence lifetime readout
Format: biochemical
[1] = 1 μM peptide in PCAF assay buffer, 25 nM Endo-LysC, one hour

Row | Substance | protease-dependent increase in FLT, absence of G9a treatment (1 μM peptide, 2 nM Endo-LysC, 60 min) [ns] | FLT before Endo-LysC, t=0 (G9a time-course, 1 μM peptide) [ns] | FLT after Endo-LysC, t=0 (G9a time-course, 1 μM peptide, 2 nM Endo-LysC 10 min) [ns] | FLT before Endo-LysC cleavage (1 μM peptide in PCAF assay buffer) [ns] | FLT after Endo-LysC cleavage [1] [ns] | assay range (FLT increase on Endo-LysC) [1] [ns]
1 | K(9AA)ARTK(Me)QTARK^9STGGW-CONH2 [peptide 9] | 2.4 | 13.5 | 16.5 | – | – | –
2 | WQTARK(Me)STGGK^14APRK(9AA)QLATK-CONH2 [peptide 16] | – | – | – | 13.9 | 15.7 | 1.8
